Anti-infective test results gathered from many reports (values: NIAID ChemDB through PubChem).

Common to all: tests in culture; agent: Staphylococcus aureus

MIC50, MIC90 and the like: level of inhibition, or share of isolates inhibited. Rows are shuffled and stem from different studies.

| structure | read-out | strain | value |
|---|---|---|---|
| N#CCNc1cc2c(cc1F)c(=O)c(C(=O)O)cn2-c1ccc(F)cc1F | MIC | ATCC 6538P | 3.1 µg/mL |
| CC[C@H]1OC(=O)[C@H](C)C(=O)[C@H](C)[C@@H](O[C@@H]2O[C@H](C)C[C@H](N(C)C)[C@H]2O)[C@@]2(C)C[C@@H](C)C(=NC(C)=O)[C@H](C)[C@@H](OC/C(=N\OCc3ccc(C(N)=O)cc3)CO2)[C@]1(C)O | MIC | 25923 (erythromycin-susceptible) | 0.13 µg/mL |
| NCCCCCNc1cc2c(cc1F)c(=O)c(C(=O)O)cn2C1CC1 | MIC | ATCC 5278 (methicillin-resistant) | >100 µg/mL |
| CC[C@H]1OC(=O)[C@H](C)C(=O)[C@H](C)[C@@H](O[C@@H]2O[C@H](C)C[C@H](N(C)C)[C@H]2O)[C@@]2(C)C[C@@H](C)C(=NC(C)=O)[C@H](C)[C@@H](OC/C(=N\Oc3ccc(-c4nnc(N)s4)cc3)CO2)[C@]1(C)O | MIC | 33591 (erythromycin methicillin-resistant) | >64 µg/mL |
| CCCCCCCCCCCC[N+](C)(C)COCC(C)CCC | MBC | ATCC 6538 | 3.43 µM |
| O=C(O)c1cn(C2CC2)c2cc(NCCCCO)c(F)cc2c1=O | MIC | ATCC 6538P | >100 µg/mL |
| Cc1c(NCCO)c(F)cc2c(=O)c(C(=O)O)cn(-c3cc(N)c(F)cc3F)c12 | Mean MIC | 27 isolates | 0.02 µg/mL |
| CNCCCN(C)c1cc2c(cc1F)c(=O)c(C(=O)O)cn2C1CC1 | MIC | ATCC 5278 (methicillin-resistant) | 3.12 µg/mL |
| CCCCCCCCCCCC[N+](C)(C)COCCCCCCCCC | MBC | ATCC33592 | 14.8 µM |
| CC[C@H]1OC(=O)[C@H](C)C(=O)[C@H](C)[C@@H](O[C@@H]2O[C@H](C)C[C@H](N(C)C)[C@H]2O)[C@@]2(C)C[C@@H](C)C(=NC(C)=O)[C@H](C)C(OC/C(=N/OCc3ccccc3)CO2)[C@]1(C)O | MIC | 33591 (erythromycin methicillin-resistant) | >64 µg/mL |
| Cc1c(N)c(F)cc2c(=O)c(C(=O)O)cn(-c3cc(N)c(F)cc3F)c12 | MIC90 | 27 isolates (methicillin-resistant) | 0.015 µg/mL |
| O=C(O)c1cn(C2CC2)c2cc(NCCCO)c(F)cc2c1=O | MIC | ATCC 6538P | >100 µg/mL |
| CNc1c(F)cc2c(=O)c(C(=O)O)cn(-c3cc(N)c(F)cc3F)c2c1C | MIC50 | 27 isolates | 0.008 µg/mL |
| N#Cc1ccc(N2CCN(c3ccc(N4C[C@H](CNc5cnccn5)OC4=O)cc3F)CC2)nn1 | MIC | 078 (oxford) | 1 µg/mL |
| NC(=O)CNc1cc2c(cc1F)c(=O)c(C(=O)O)cn2-c1ccc(F)cc1F | MIC | ATCC 6538P | 12.5 µg/mL |
| O=C(CO)N1CCN(c2ccc(N3C[C@H](CNc4ccon4)OC3=O)cc2F)CC1 | MIC | 078 (oxford) | 1 µg/mL |
| CCCCCCCCCCCC[N+](C)(C)COC1CCCCCCCCCCC1 | MBC | ATCC 6538 | 3.36 µM |
| CC[C@H]1OC(=O)[C@H](C)C(=O)[C@H](C)[C@@H](O[C@@H]2O[C@H](C)C[C@H](N(C)C)[C@H]2O)[C@@]2(C)C[C@@H](C)C(=NC(C)=O)[C@H](C)[C@@H](OC/C(=N\Oc3ccc(-n4cccn4)nc3)CO2)[C@]1(C)O | MIC | 33591 (erythromycin methicillin-resistant) | >64 µg/mL |
| COC(=O)N1CCN(c2ccc(N3C[C@H](COc4ccon4)OC3=O)cc2F)CC1 | MIC | 078 (oxford) | 2 µg/mL |
| CCCCCCCCCCCC[N+](C)(C)COCCCCCCCCCCC | MIC | ATCC33592 | 11.5 µM |
| N#Cc1ccc(N2CCN(c3ccc(N4C[C@H](CNc5ccon5)OC4=O)cc3F)CC2)nn1 | MIC | 004 (methicillin quinolone-resistant) | 0.5 µg/mL |
| CCCCCCCCCCCC[N+](C)(C)COCC(CC)CCC | MIC | ATCC33592 | 12.8 µM |
| CC(C)OCCCNc1cc2c(cc1F)c(=O)c(C(=O)O)cn2C1CC1 | MIC | ATCC 6538P | >100 µg/mL |

A second listing of 2 rows from above:

O=C(O)c1cn(C2CC2)c2cc(NCCCO)c(F)cc2c1=O ; read-out: MIC ; strain: ATCC 6538P ; value: >100 µg/mL
CCCCCCCCCCCC[N+](C)(C)COCC(CC)CCC ; read-out: MIC ; strain: ATCC33592 ; value: 12.8 µM